Earlier results on one molecule are cited in US9427426B2 (priority 2008, dated 2016).

The subject of this data set is rat. Conditions: in vivo; cited from earlier work.

Consider `CC(=O)Nc1ccc(O)cc1` [Paracetamol], for which the LD50 per os is on record as 1944 mg/kg.
